Results of unrelated studies side by side (data: NIAID ChemDB).

Common to all: growth or infection tests; species: HIV-1; measure: EC50

Two numbers with a dash give a range or band.

CCC(=O)c1ccc(F)c([C@@H]2C[C@@H]2NC(=O)Nc2ccc(C#N)cn2)c1O ; mutations: NNRTI-resistant (RT K101P) ; cell line: TZM-bl ; strain or isolate: LAI ; method: β-galactosidase / luminescence ; value: ≥0.0625 µM
Nc1ccn([C@H]2CC[C@@H](CO)O2)c(=O)n1 ; strain or isolate: NL4-3 ; method: β-galactosidase ; value: 0.43 µM
CC(C)=CCOc1cc(NC(=S)c2ccsc2C)ccc1Cl ; mutations: RT-L100I ; cell line: CEM + CEM-SS ; strain or isolate: Oxathiin carboxanilide-resistant RT L100I ; method: cytopathic effect / XTT ; value: 0.3 µM
O=C(O)C[C@@H](NC(=O)c1ccccc1SSc1ccccc1C(=O)N[C@H](CC(=O)O)C1CCCCC1)C1CCCCC1 ; cell line: CEM ; strain or isolate: IIIB ; method: cytopathic effect / XTT ; value: 4.3 µM
CC(C)C1=C2[C@H]3CC[C@@H]4[C@@]5(C)CC[C@H](OC(=O)[C@H]6C[C@@H](C(=O)O)C6(C)C)C(C)(C)[C@@H]5CC[C@@]4(C)[C@]3(C)CC[C@@]2(CC(=O)NCC(C)(C)NC(=O)c2ccccc2Cl)CC1=O ; cell line: MT-2 ; strain or isolate: 92HT599 ; method: p24 / ELISA ; value: <1 µM
CCN1c2ncc(CCOc3ccc(C(=O)NS(=O)(=O)c4ccccc4)cc3C)cc2C(=O)N(C)c2cccnc21 ; mutations: RT-K103N Y181C ; cell line: C8166 ; method: p24 ; value: >0.05 µM
CC(C)C[C@@H](CCC(=O)O)NC(=O)c1ccccc1SSc1ccccc1C(=O)N[C@H](CCC(=O)O)CC(C)C ; cell line: CEM ; strain or isolate: IIIB ; method: cytopathic effect / XTT ; value: 4 µM
CCN1c2ncc(CCOc3ccc(NC(=O)c4ccc(C(=O)O)cc4)cc3C)cc2C(=O)N(C)c2cccnc21 ; cell line: C8166 ; strain or isolate: IIIB ; method: p24 ; value: 0.01–0.05 µM
CC(C)CN(C[C@@H](O)[C@H](Cc1ccccc1)NC(=O)O[C@H]1CO[C@H]2OCC[C@H]21)S(=O)(=O)c1ccc2nc(NC3CCN(C4CCCC4)CC3)sc2c1 ; mutations: V32I L76V V82I ; cell line: MT-4 ; strain or isolate: T13572 ; method: reporter gene ; value: 1.5 nM
CCC1=C(C(=O)OCC2CCCCC2)C(c2ccc(OC(F)F)c(O)c2)NC(=O)N1 ; cell line: CEM ; method: p24 / ELISA ; value: ≤1 µM
CC(C)C1=C2[C@H]3CC[C@@H]4[C@@]5(C)CC[C@H](OC(=O)[C@H]6C[C@@H](C(=O)O)C6(C)C)C(C)(C)[C@@H]5CC[C@@]4(C)[C@]3(C)CC[C@@]2([C@@H](O)CNC(=O)C2(N)CCC2)CC1=O ; cell line: MT-2 ; strain or isolate: 92HT599 ; method: p24 / ELISA ; value: <1 µM
Nc1ccc(C[C@H](NC(=O)c2ccccc2SSc2ccccc2C(=O)N[C@@H](Cc2ccc(N)cc2)C(=O)O)C(=O)O)cc1 ; cell line: CEM ; strain or isolate: IIIB ; method: cytopathic effect / XTT ; value: >15 µM
O=C1OCc2cc(=O)c(O)c(O)c(O)c21 ; cell line: CEM-SS ; strain or isolate: RF ; method: cytopathic effect / absorbance ; value: >50 µM
CC(C)=CCN1Cc2cccc3[nH]c(=O)n(c23)CC1C ; mutations: RT-Y181C ; cell line: CEM + CEM-SS ; strain or isolate: UC040-R (RT-Y181C) ; method: cytopathic effect / XTT ; value: 2 µM
COC(=O)[C@H](CC(C)C)NC(=O)c1ccccc1SSc1ccccc1C(=O)N[C@@H](CC(C)C)C(=O)OC ; cell line: CEM ; strain or isolate: IIIB ; method: cytopathic effect / XTT ; value: >100 µM
Cc1cc(OCCCS(N)(=O)=O)ccc1NC(=O)COc1ccc(Cl)cc1C(=O)c1cc(F)cc(C(F)(F)F)c1 ; mutations: RT-Y181C ; cell line: MT-4 ; strain or isolate: Nevirapine-resistant (RT Y181C) ; method: cytopathic effect / propidium iodide ; value: <0.01 µM
CC(=O)c1c(C)nc(-c2ccccc2)nc1NC(=O)c1ccccc1 ; cell line: HeLa ; strain or isolate: 14AG ; method: GFP / fluorescence ; value: 8.7 µM
CCN1c2ncc(CCOc3ccc(-c4ccc(C(=O)O)cc4)c(Cl)c3)cc2C(=O)N(C)c2cccnc21 ; mutations: RT-K103N Y181C ; cell line: C8166 ; method: p24 ; value: >0.05 µM
O=C(COc1ccc(Cl)cc1C(=O)c1ccccc1)Nc1ccc2cn[nH]c2c1 ; mutations: RT-K103N ; cell line: HeLa + HELA CD4+ ; strain or isolate: HXB2 ; method: β-galactosidase ; value: <0.01 µM
Cc1cn([C@H]2C=C[C@@H](COP(=O)(Nc3cc(C(=O)Nc4cc(C(=O)Nc5cc(C(=O)NCCC#N)n(C)c5)n(C)c4)n(C)c3)OC3CCCCC3)O2)c(=O)[nH]c1=O ; cell line: MT-4 ; method: p24 / antigen ; value: 0.4 µM
CC(C)[C@H](NC(=O)c1ccc2ccccc2n1)C(=O)N[C@@H](Cc1ccccc1)C(O)CN1CC2CCCCC2CN1C(=O)OC(C)(C)C ; cell line: MT-2 ; strain or isolate: Clinical isolate strain 237228 ; method: cytopathic effect / RT activity / trypan blue ; value: <1 µM
N=C1Sc2ccccc2C2=NCCCN12 ; cell line: TZM-bl ; strain or isolate: 93IN101 ; method: β-galactosidase ; value: 1.6 µM
CCCc1cc(=O)oc2c3c(c4c(c12)OC(C)(C)CC4)O[C@@H](C)[C@H](C)[C@@H]3O ; mutations: RT-Y181C ; cell line: CEM + CEM-SS ; strain or isolate: Nevirapine-resistant (RT Y181C) ; method: XTT ; value: 0.09 µM
CC(C)C1=C2[C@H]3CC[C@@H]4[C@@]5(C)CC[C@H](OC(=O)[C@H]6C[C@@H](C(=O)O)C6(C)C)C(C)(C)[C@@H]5CC[C@@]4(C)[C@]3(C)CC[C@@]2([C@@H](O)CNCCN2CCOCC2)CC1=O ; cell line: MT-2 ; strain or isolate: 92HT599 ; method: p24 / ELISA ; value: <1 µM
CCC1=C(c2nc(C3CCCCC3)cs2)C(c2cccc(C#N)c2)NC(=O)N1 ; cell line: CEM ; method: p24 / ELISA ; value: 1–5 µM
Cc1cn([C@H]2C=C[C@@H](COP(=O)(Nc3cc(C(=O)Nc4cc(C(=O)Nc5cc(C(=O)Nc6cc(C(=O)NCCC(=N)N)n(C)c6)n(C)c5)n(C)c4)n(C)c3)OC(C)C)O2)c(=O)[nH]c1=O ; cell line: MT-4 ; method: p24 / antigen ; value: 1.63 µM
C[C@H]1[C@H](O)[C@@H](C)/C=C/C=C/C=C/C=C/C=C/C=C/C=C/[C@H](O[C@@H]2O[C@H](C)[C@@H](O)[C@H](N)[C@@H]2O)C[C@@H]2O[C@](O)(C[C@@H](O)C[C@@H](O)CC[C@H](O)[C@@H](O)C[C@@H](O)CC(=O)O[C@H]1C)C[C@H](O)[C@H]2C(=O)O ; cell line: PBMC ; strain or isolate: 93TH073 CLADE E R5 (NSI) ; method: p24 / RT activity ; value: 5.5 µM
COC(=O)c1cc(O)c(O)c(=O)cc1C ; cell line: CEM-SS ; strain or isolate: RF ; method: cytopathic effect / absorbance ; value: 5.3 µM
CC(C)CN(C[C@@H](O)[C@H](Cc1ccccc1)NC(=O)O[C@H]1CO[C@H]2OCC[C@H]21)S(=O)(=O)c1ccc(C(N)=O)cc1 ; cell line: MT-2 ; strain or isolate: LAI ; method: p24 / luminescence ; value: 0.093 µM
Cc1cn([C@H]2C[C@H](N=[N+]=[N-])[C@@H](COP(=O)(Nc3cc(C(=O)Nc4cc(C(=O)Nc5cc(C(=O)NCCC(=N)N)n(C)c5)n(C)c4)n(C)c3)OC(C)C)O2)c(=O)[nH]c1=O ; cell line: MT-4 ; method: p24 / antigen ; value: 0.007 µM
CCN1c2ncc(CCOc3ccc(-c4cc(C(=O)O)on4)cc3C)cc2C(=O)N(C)c2cccnc21 ; mutations: RT-K103N Y181C ; cell line: C8166 ; method: p24 ; value: >0.05 µM
Cc1cc(C#N)cc(C)c1Oc1nc(Nc2ccc(C#N)cc2)nc(N)c1Br ; mutations: NL/103+348 ; cell line: TZM-bl ; value: 0.0086 µM
CC(C)=CCOc1cc(NC(=S)c2ccoc2C)ccc1Cl ; mutations: RT-V179D ; cell line: CEM + CEM-SS ; strain or isolate: NL4-3 (RT V179D) ; method: cytopathic effect / XTT ; value: 0.008 µM
Cc1cc(S(N)(=O)=O)ccc1NC(=O)COc1ccc(Cl)cc1C(=O)c1cc(C#N)cc(C#N)c1 ; mutations: RT-V106A ; cell line: HeLa + HELA CD4+ ; strain or isolate: HXB2 ; method: β-galactosidase ; value: <0.01 µM
CC(C)C1=C2[C@H]3CC[C@@H]4[C@@]5(C)CC[C@H](OC(=O)[C@H]6C[C@@H](C(=O)O)C6(C)C)C(C)(C)[C@@H]5CC[C@@]4(C)[C@]3(C)CC[C@@]2(CCNC(C)(C)c2ncc(Cl)cn2)CC1=O ; cell line: MT-2 ; strain or isolate: 92HT599 ; method: p24 / ELISA ; value: <1 µM
Cc1cc(S(N)(=O)=O)ccc1NC(=O)COc1ccc(Cl)cc1C(=O)c1cc(Cl)cc(Cl)c1 ; mutations: RT-K103N ; cell line: HeLa + HELA CD4+ ; strain or isolate: HXB2 ; method: β-galactosidase ; value: <0.01 µM
NC(=O)C[C@H](NC(=O)c1ccccc1SSc1ccccc1C(=O)N[C@@H](CC(N)=O)C(=O)O)C(=O)O ; cell line: CEM ; strain or isolate: IIIB ; method: cytopathic effect / XTT ; value: 51 µM
Cc1cn([C@H]2C[C@H](N=[N+]=[N-])[C@@H](COP(=O)(Nc3cc(C(=O)Nc4cc(C(=O)NCCC(=N)N)n(C)c4)n(C)c3)OC3CCCCC3)O2)c(=O)[nH]c1=O ; cell line: MT-4 ; method: p24 / antigen ; value: 0.018 µM
CC(C)c1c(Cc2ccccc2)n(COCc2ccccc2)c(=O)[nH]c1=O ; mutations: Y181C ; cell line: MT-4 ; strain or isolate: A17 ; method: p24 / ELISA ; value: 2.398 µM
Cc1cc(S(N)(=O)=O)ccc1NC(=O)COc1ccc(Cl)cc1C(=O)c1cccc(C#N)c1 ; mutations: RT-Y181C ; cell line: HeLa + HELA CD4+ ; strain or isolate: HXB2 ; method: β-galactosidase ; value: <0.01 µM
CCC1=C(C(=O)c2cc(C)cc(C)c2)C(c2cccc(O)c2)NC(=O)N1 ; cell line: CEM ; method: p24 / ELISA ; value: >5 µM
CC(C)C1=C2[C@H]3CC[C@@H]4[C@@]5(C)CC[C@H](OC(=O)[C@H]6C[C@@H](C(=O)O)C6(C)C)C(C)(C)[C@@H]5CC[C@@]4(C)[C@]3(C)CC[C@@]2([C@@H](O)CNC(=O)[C@@H](N)C(C)C)CC1=O ; cell line: MT-2 ; strain or isolate: 92HT599 ; method: p24 / ELISA ; value: <1 µM
Cc1cn([C@H]2C[C@H](N=[N+]=[N-])[C@@H](CO)O2)c(=O)[nH]c1=O ; cell line: CEM + CEM-SS ; strain or isolate: RF ; method: cytopathic effect / MTS ; value: 0.006 µM
CN1c2ccccc2C2C1C=C(C#N)C(=O)N2c1ccc([N+](=O)[O-])cc1 ; cell line: HeLa ; strain or isolate: G-3 ; method: GFP / fluorescence ; value: 0.02 µM
COC(=O)c1cc(=O)c(O)c(OC)cc1C ; cell line: CEM-SS ; strain or isolate: RF ; method: cytopathic effect / absorbance ; value: >50 µM
CC(C)N(C[C@H](O)[C@H](Cc1ccccc1)NC(=O)[C@H](CC(N)=O)NC(=O)c1ccccc1)NC(=O)OC(C)(C)C ; cell line: MT-2 ; strain or isolate: Clinical isolate strain 237228 ; method: cytopathic effect / RT activity / trypan blue ; value: <1 µM
CCN1c2ncc(CCOc3ccc(-c4ccc(C(=O)O)s4)cc3C)cc2C(=O)N(C)c2cccnc21 ; cell line: C8166 ; strain or isolate: IIIB ; method: p24 ; value: <0.01 µM
Cc1cc(C#N)cc(C(=O)c2cc(Cl)ccc2OCC(=O)Nc2ccc(S(N)(=O)=O)cc2C)c1 ; mutations: RT-G190A ; cell line: HeLa + HELA CD4+ ; strain or isolate: HXB2 ; method: β-galactosidase ; value: <0.01 µM
CC(C)N(C[C@H](O)[C@H](Cc1ccccc1)NC(=O)[C@H](CC(N)=O)NC(=O)c1ccc2ccccc2n1)NC(=O)OC(C)(C)C ; cell line: MT-2 ; strain or isolate: Clinical isolate strain 237228 ; method: cytopathic effect / RT activity / trypan blue ; value: <0.1 µM
CC1(C)OC(c2cnn(-c3ccccc3)n2)C(C(O)CN2CCC(Cc3ccccc3)CC2)O1 ; cell line: CEM + CEM-SS ; strain or isolate: RF ; method: cytopathic effect / MTS ; value: >100 µM
CCC1=C(C(=O)OCC2CCCCC2)C(c2cc(Br)cc(Br)c2)NC(=O)N1 ; cell line: CEM ; method: p24 / ELISA ; value: >5 µM
CC1(C)OC(c2cnn(-c3ccccc3)n2)C(C(O)CN2CCCC2)O1 ; cell line: CEM + CEM-SS ; strain or isolate: IIIB ; method: cytopathic effect / MTS ; value: >100 µM
CC(C)C1=C2[C@H]3CC[C@@H]4[C@@]5(C)CC[C@H](OC(=O)[C@H]6C[C@@H](C(=O)O)C6(C)C)C(C)(C)[C@@H]5CC[C@@]4(C)[C@]3(C)CC[C@@]2([C@@H](O)CNCC(F)(CN)NC(=O)c2ccc(Cl)cc2)CC1=O ; cell line: MT-2 ; strain or isolate: 92HT599 ; method: p24 / ELISA ; value: <1 µM
Cc1cc(S(N)(=O)=O)ccc1NC(=O)COc1ccc(Cl)cc1C(=O)c1cccc(C#N)n1 ; mutations: RT-Y181C ; cell line: HeLa + HELA CD4+ ; strain or isolate: HXB2 ; method: β-galactosidase ; value: <0.01 µM
CCN1c2ncc(CCOc3ccc(-c4ccc(C(=O)O)s4)cc3)cc2C(=O)N(C)c2cccnc21 ; cell line: C8166 ; strain or isolate: IIIB ; method: p24 ; value: 0.01–0.05 µM

A second listing of 4 rows from above:

SMILES	mutations	cell line	strain or isolate	method	value
CC(C)C1=C2[C@H]3CC[C@@H]4[C@@]5(C)CC[C@H](OC(=O)[C@H]6C[C@@H](C(=O)O)C6(C)C)C(C)(C)[C@@H]5CC[C@@]4(C)[C@]3(C)CC[C@@]2([C@@H](O)CNCCN2CCOCC2)CC1=O	-	MT-2	92HT599	p24 / ELISA	<1 µM
CCN1c2ncc(CCOc3ccc(-c4ccc(C(=O)O)s4)cc3C)cc2C(=O)N(C)c2cccnc21	-	C8166	IIIB	p24	<0.01 µM
Cc1cn([C@H]2C[C@H](N=[N+]=[N-])[C@@H](CO)O2)c(=O)[nH]c1=O	-	CEM + CEM-SS	RF	cytopathic effect / MTS	0.006 µM
CC(C)N(C[C@H](O)[C@H](Cc1ccccc1)NC(=O)[C@H](CC(N)=O)NC(=O)c1ccc2ccccc2n1)NC(=O)OC(C)(C)C	-	MT-2	Clinical isolate strain 237228	cytopathic effect / RT activity / trypan blue	<0.1 µM

ECn is the concentration giving n% inhibition of infection, replication or growth. An empty or dashed field is not shown. Lines come from different laboratories, so protocols vary.